Measured values from several laboratories, pooled; numbers as filed in NIAID ChemDB.

Shared fields: tests in culture; agent: Mycobacterium fortuitum

a–b is a range or a potency band. Neighbouring rows are from separate reports. An empty or dashed field is not shown. MIC50, MIC90 and the like: level of inhibition, or share of isolates inhibited.

smiles	strain or isolate	method	endpoint	result
C[C@@H]1CN(c2c(F)c(N)c3c(=O)c(C(=O)O)cn(C4CC4)c3c2F)C[C@H](C)N1	ATCC 6841		MBC	0.3 µg/mL
CC(C)N=c1cc2n(-c3ccc(Cl)cc3)c3ccccc3nc-2cc1Nc1ccc(Cl)cc1		broth dilution	MIC90	≤0.5 µg/mL
CCn1cc(C(=O)O)c(=O)c2cc(F)c(-c3nc(-c4ccccc4)cs3)cc21			MIC	3.12 µg/mL
C[C@@H]([C@H](NC(=O)[C@H](Cc1ccc2ccccc2c1)NC(=O)N[C@@H](Cc1c[nH]c2ccccc12)C(=O)NCC(C)(C)C)C(=O)NC[C@H]1C[C@@H](O)[C@H](n2ccc(=O)[nH]c2=O)O1)N(C)C(=O)CN	rA17	resazurin / fluorescence	MIC	0.8 µM
CC(C)(C)Sc1ccccc1/C=N/N=C(\N)c1ccccn1	NCTC 10394		MIC	>128 µg/mL
C[C@@H]1CN(c2c(F)c(N)c3c(=O)c(C(=O)O)cn(C4CC4)c3c2F)C[C@H](C)N1	NCTC 10394		MIC	0.25 µg/mL
Cc1ccnc(NS(=O)(=O)c2ccc(NC(=S)Nc3ccc(C(=O)O)c(O)c3)cc2)n1	ATCC 6841	broth dilution	MIC	64 µg/mL
N/C(=N\N=C\c1ccccn1)c1ccccn1	NCTC 10394		MIC	>50 µg/mL
O=C(NNC(=S)Nc1ccc(C(=O)O)c(O)c1)c1ccncc1	ATCC 6841	broth dilution	MIC	>128 µg/mL
N/C(=N\N=C\c1cccc(OCc2ccccc2)c1)c1ccccn1	NCTC 10394		MIC	32–64 µg/mL
FC(F)(F)c1cc(-c2ccccc2)nc(N2N=C(/C=C/c3ccc(Cl)cc3)CC2c2ccc(Cl)cc2)n1		resazurin	MIC	>20.6 µM
CCn1cc(C(=O)O)c(=O)c2cc(Cl)c(-c3nc(-c4ccccc4)cs3)cc21			MIC	6.25 µg/mL
CC(C)OC1Oc2ccc([N+](=O)[O-])cc2C(=O)/C1=C\Nc1ccc(C(=O)O)c(O)c1	1021		MIC	>100 µg/mL
Cc1cccc(C)c1Nc1nc(C#N)cnc1C(N)=O	1021		MIC	>100 µg/mL
O=C(O)c1ccc(N2C(=O)C(C(=O)C(F)(F)F)C(=O)N(c3ccc(S(=O)(=O)Nc4ncccn4)cc3)C2=S)cc1O	ATCC 6841	broth dilution	MIC	>128 µg/mL
CCOC1Oc2ccccc2C(=O)/C1=C\Nc1ccc(O)c(C(=O)O)c1	1021		MIC	>100 µg/mL
CCC1Cn2cc([N+](=O)[O-])nc2O1	1 isolates		MIC	>250 µg/mL
CO[C@@]1(NC(=O)CSCC#N)C(=O)N2C(C(=O)O)=C(CSc3nnnn3C)CS[C@@H]21	1263		MIC	12.5 µg/mL
COc1ccc(/C=N/N=C(\N)c2ccccn2)c2ccccc12	NCTC 10394		MIC	16–32 µg/mL
Cc1noc(N)c1C(=O)N/N=C/c1ccc(Cl)c(Cl)c1	PCM 672	resazurin	MIC90	62.5 µg/mL
CCn1cc(C(=O)O)c(=O)c2ccc(-c3nc(C)cs3)cc21			MIC	25 µg/mL
CC1COc2c(N3CCN(C)CC3)c(F)cc3c(=O)c(C(=O)O)cn1c23	20 strains		MIC50	1.56 µg/mL
COc1cc2c(cc1O)CCc1cc(O)cc(OC)c1-2			MIC	25 µg/mL
COc1cccc(/C=N/N=C(\N)c2ccccn2)c1OCc1ccccc1	NCTC 10394		MIC	16–32 µg/mL
CO[C@@]1(NC(=O)Cc2ccccc2)C(=O)N2C(C(=O)O)=C(COC(C)=O)CSC21	1059		MIC	>100 µg/mL
COc1cc(OC)c2c(ccc3cc(O)c(O)cc32)c1			MIC	25 µg/mL
CCCCCCOC1Oc2ccc(Cl)cc2C(=O)/C1=C\Nc1ccc(C(=O)O)c(O)c1	1021		MIC	>100 µg/mL
Cc1cccc(Nc2nc(C#N)cnc2C(N)=O)c1	1021		MIC	>100 µg/mL
CN1CCN(c2cc3c(cc2F)c(=O)c(C(=O)O)cn3C2CC2)CC1	16 isolates		MIC50	0.125 µg/mL
Cc1noc2nc(C)n(/N=C/c3ccc(C(F)(F)F)cc3)c(=O)c12	PCM 672	resazurin	MIC90	>100 µg/mL
COc1cc2c(ccc3cc(OC)c(O)c(OC)c32)cc1O			MIC	100 µg/mL
Cc1ccnc(NS(=O)(=O)c2ccc(N3C(=O)CC(=O)N(c4ccc(C(=O)O)c(O)c4)C3=S)cc2)n1	ATCC 6841	broth dilution	MIC	64 µg/mL
N/C(=N\N=C\c1ccccc1OCc1ccccc1)c1ccccn1	NCTC 10394		MIC	25–50 µg/mL
CO[C@@]1(NC(=O)C(C(=O)O)c2ccc(O)cc2)C(=O)N2C(C(=O)O)=C(CSc3nnnn3C)CO[C@@H]21	1030-8		MIC	50 µg/mL
CCOC1Oc2ccccc2C(=O)/C1=C\Nc1ccc(C(=O)O)c(O)c1	1021		MIC	>100 µg/mL
Cc1noc2ncn(/N=C/c3ccc(Cl)cc3)c(=O)c12	PCM 672	resazurin	MIC90	>100 µg/mL
C[C@@H](O)[C@H]1C(=O)N2C(C(=O)O)=C(SCCN=CN)C[C@H]12	1048		MIC	3.12 µg/mL
Cc1c(F)c(N2CCNC(C)C2)cc2c1c(=O)c(C(=O)O)cn2C1CC1	20 strains		MIC50	6.25 µg/mL
Oc1ccc(CCN=C=S)cc1		visual reading	MIC	16 µg/mL
Cc1noc2nc(C)n(/N=C/c3ccncc3)c(=O)c12	PCM 672	resazurin	MIC90	>100 µg/mL
Cc1c(NC(=S)Nc2ccc(C(=O)O)c(O)c2)c(=O)n(-c2ccccc2)n1C	ATCC 6841	broth dilution	MIC	64 µg/mL
N#Cc1cnc(C(N)=O)c(Nc2cc(C(F)(F)F)cc(C(F)(F)F)c2)n1	1021		MIC	>100 µg/mL
COc1cc(CCc2ccc(O)cc2)cc(OC)c1OC			MIC	100 µg/mL
CCn1cc(C(=O)O)c(=O)c2ccc(-c3nc(C)c(C)s3)cc21			MIC	12.5 µg/mL
C[C@@H]([C@H](NC(=O)[C@H](CC1CCCCC1)NC(=O)N[C@@H](Cc1c[nH]c2ccccc12)C(=O)NCC(C)(C)C)C(=O)NC[C@H]1C[C@@H](O)[C@H](n2ccc(=O)[nH]c2=O)O1)N(C)C(=O)CN	PN	resazurin / fluorescence	MIC	0.704 µM

A second listing of 6 rows from above:

| smiles | strain or isolate | method | endpoint | result |
|---|---|---|---|---|
| N/C(=N\N=C\c1cccc(OCc2ccccc2)c1)c1ccccn1 | NCTC 10394 |  | MIC | 32–64 µg/mL |
| O=C(NNC(=S)Nc1ccc(C(=O)O)c(O)c1)c1ccncc1 | ATCC 6841 | broth dilution | MIC | >128 µg/mL |
| CCn1cc(C(=O)O)c(=O)c2ccc(-c3nc(C)c(C)s3)cc21 |  |  | MIC | 12.5 µg/mL |
| Cc1noc2ncn(/N=C/c3ccc(Cl)cc3)c(=O)c12 | PCM 672 | resazurin | MIC90 | >100 µg/mL |
| C[C@@H]([C@H](NC(=O)[C@H](Cc1ccc2ccccc2c1)NC(=O)N[C@@H](Cc1c[nH]c2ccccc12)C(=O)NCC(C)(C)C)C(=O)NC[C@H]1C[C@@H](O)[C@H](n2ccc(=O)[nH]c2=O)O1)N(C)C(=O)CN | rA17 | resazurin / fluorescence | MIC | 0.8 µM |
| CCn1cc(C(=O)O)c(=O)c2cc(F)c(-c3nc(-c4ccccc4)cs3)cc21 |  |  | MIC | 3.12 µg/mL |